Two molecules from patent US20240285753A1 (DUKE UNIVERSITY, published 2024) can be followed below.

For experiment [1], the target named is SHC014 (Bat CoV RsSHC014). Nature of the experiment: ELISA, coated spike, mAb titrated.
Experiment [2] addresses RaTG13 (coronavirus RaTG13). The experiment in a line: ELISA, coated spike, mAb titrated. Background: In an ELISA, binding on a coated surface is turned into a signal by an enzyme label.
In experiment [3] the target is HKU-1 spike (2P) (human coronavirus HKU1). Nature of the experiment: ELISA, coated antigen, mAb titrated.

B1: DH1509 (antibody, V domains shown)
VH: QVQLVESGGGVVQPGRSLRLSCAASGFTLSSHGIHWVRQAPGKGLEWVAVTSFDGRNKKFGDSVKGRFTISRDNSKNTVYLQMNSLRTEDTAVYYCAKDWGDDYSRWYFDLWGRGTLVTVSS
VL: DIQMTQSPSSLSASVGDRVTITCQASHDITKYLNWYQQKPGRAPKLLIYDASNLKTGVPSRFSGSGSGTDFTFTITSLQPEDLATYYCQQSDVLPITFGQGTRLEIK
Usually EC50 (read off the curve) stands for the concentration giving half of the maximal effect. As for B1, the “EC50 (read off the curve)” value in experiment [1] and in experiment [2] was approximately 1 mg/L each time.

B2: inferred UCA of DH1501.1, DH1501.2 and DH1501.3 (antibody, V domains shown)
VH: QVQLVQSGAEVKKPGASVKVSCKASGYTFTSYYMHWVRQAPGQGLEWMGIINPSGGSTSYAQKFQGRVTMTRDTSTSTVYMELSSLRSEDTAVYYCARMSRYGAFDIWGQGIMVTVSS
VL: not shown
Take B2: the “EC50 (read off the curve)” value in experiment [3] was approximately 0.03 mg/L.
